# Measured values reported in PubChem BioAssay AID1949 (Southern Research Institute, 2009).
# The list shows a part of the results, in another mix than the full data. Records with an inconclusive call do not appear. The source made the active and inactive calls. No rule for the calls is given here.
# Assay: Confirmatory growth inhibition assay against Mycobacterium tuberculosis H37Rv, potency (AID 1949);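 also: bacteria grown 7 days with compound before Alamar blue readout; 0% = untreated bacteria wells and 100% = bacteria with saturating antibiotic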
# Conditions: M. tuberculosis H37Rv growth inhibition; active compounds read high; concentration not given here
row,Compound,inhibition
1,Cc1ccccc1OCC(=O)OC1CN2CCC1CC2 (stereo unspecified),inactive: 0%
2,O=C(CCc1ccccc1)OC1CN2CCC1CC2 (stereo unspecified),inactive: 5.28%
3,Cc1cccc(C(=O)OC2CN3CCC2CC3)c1 (stereo unspecified),inactive: 0%
4,CN1CCCC(OC(=O)C(c2ccccc2)c2ccccc2)C1 (stereo unspecified),inactive: 1.88%
5,O=C(OC1CN2CCC1CC2)c1cccc(Cl)c1 (stereo unspecified),inactive: 0%
6,COc1ccc(OCC(=O)OC2CN3CCC2CC3)cc1 (stereo unspecified),inactive: 0%
